Compound potency records, mixed from different reports. Data source: NIAID ChemDB in PubChem.

Common to all: enzyme or target tests; organism: HIV; target: Reverse transcriptase

Fold resistance has wild type as its base.

compound | dose | mutations | read by | read-out | value
CSc1ncc(C(N)=O)c(Nc2ccc3cn[nH]c3c2)n1 | 0.1 µg/mL | - | ELISA | inhibition | 48%
CC(C)=CCN1Cc2cccc3[nH]c(=S)n(c23)C[C@@H]1C | - | - | nucleotide incorporation | Ki | 1.04 µM
Nc1ccn([C@H]2CC[C@@H](COP(=O)(O)OP(=O)(O)OP(=O)(O)O)O2)c(=O)n1 | - | RT-L74V T215Y | - | fold resistance | 14.7
Nc1ccn([C@@H]2CC[C@H](COP(=O)(O)OP(=O)(O)OP(=O)(O)O)O2)c(=O)n1 | - | RT-Y188L | nucleotide incorporation / radiometric | fold resistance | 1.4
Nc1ncnc2c1ncn2[C@H]1CC[C@@H](COP(=O)(O)OP(=O)(O)OP(=O)(O)O)O1 | - | RT-V75I F77L F116Y Q151M | nucleotide incorporation / radiometric | Ki | 4.6 µM
Nc1nc2c(ncn2[C@H]2CC[C@@H](COP(=O)(O)OP(=O)(O)OP(=O)(O)O)O2)c(=O)[nH]1 | - | RT-W88G | nucleotide incorporation / radiometric | fold resistance | 2
Nc1ccn([C@@H]2CS[C@H](COP(=O)(O)OP(=O)(O)OP(=O)(O)O)O2)c(=O)n1 | - | RT-K65R Q151M | radiometric | Ki | 0.418 µM
Cc1cc(Cc2ccc(Cl)c(Oc3cc(F)cc(C#N)c3)c2F)n[nH]c1=O | - | WT | - | IC50 | 0.001 µM
CC(C)=CCN1Cc2cccc3[nH]c(=S)n(c23)C[C@@H]1C | - | RT-Y271S | nucleotide incorporation | IC50 | 67.5 µM
Cc1cn([C@H]2CC[C@@H](COP(=O)(O)OP(=O)(O)OP(=O)(O)O)O2)c(=O)[nH]c1=O | - | RT-L74V T215Y | - | Ki | 0.24 µM
Cc1cn([C@H]2CC[C@@H](COP(=O)(O)OP(=O)(O)OP(=O)(O)O)O2)c(=O)[nH]c1=O | - | RT-M41L T215Y | nucleotide incorporation / radiometric | IC50 | 0.13 µM
Nc1ccn([C@H]2CC[C@@H](COP(=O)(O)OP(=O)(O)OP(=O)(O)O)O2)c(=O)n1 | - | RT-V75I F77L F116Y Q151M | nucleotide incorporation / radiometric | Ki | 42 µM
Nc1nc2c(ncn2[C@H]2CC[C@@H](COP(=O)(O)OP(=O)(O)OP(=O)(O)OP(=O)(O)OC[C@@H]3CC[C@H](n4cnc5c(=O)[nH]c(N)nc54)O3)O2)c(=O)[nH]1 | - | RT-W88G | nucleotide incorporation / radiometric | fold resistance | 3.3
CCOC(=O)c1c(C(C)C)c(C#N)c(=N)n2ccccc12 | 80 µM | - | - | inhibition | 45%
Nc1ncnc2c1ccn2[C@H]1C[C@H](F)[C@@H](COP(=O)(O)OP(=O)(O)OP(=O)(O)O)O1 | - | RT-W88G | nucleotide incorporation / radiometric | fold resistance | 2.8
CN(C)CCCN=C(N)c1ccc(C(N)=NCCCN(C)C)cc1 | - | RT-Y188L | nucleotide incorporation / radiometric | fold resistance | 5.95

Repeating the first 2 entries:

compound | dose | mutations | read by | read-out | value
CSc1ncc(C(N)=O)c(Nc2ccc3cn[nH]c3c2)n1 | 0.1 µg/mL | - | ELISA | inhibition | 48%
CC(C)=CCN1Cc2cccc3[nH]c(=S)n(c23)C[C@@H]1C | - | - | nucleotide incorporation | Ki | 1.04 µM

An empty or dashed field is not shown. Lines come from different laboratories, so protocols vary. Percent inhibition refers to the dose given; in toxicity tests it is the harm to the cells. ICn: concentration for n% inhibition.